Test results: patent US20230293407A1, “Compositions Comprising (Bio)-Alkanediols with Antimicrobials for Product Protection” (Symrise AG, priority 2020, published 2023)

Columns and labels:
Test in all cases: preservation efficacy test (PET), European Pharmacopoeia 5.1.3
Type in all cases: cell-based
Pseudomonas aeruginosa = Pseudomonas aeruginosa (PA)
Staphylococcus aureus = Staphylococcus aureus (SA)
Candida albicans = Candida albicans (CA)
Escherichia coli = Escherichia coli (EC)

propanediol caprylate
number of microorganisms, 2 days (Pseudomonas aeruginosa; 2 days after inoculation): 1 | number of microorganisms, 7 days (Pseudomonas aeruginosa; 7 days after inoculation): 1 | number of microorganisms, 14 days (Pseudomonas aeruginosa; 14 days after inoculation): 1 | number of microorganisms, 28 days (Pseudomonas aeruginosa; 28 days after inoculation): 1 | number of microorganisms, 2 days (Staphylococcus aureus; 2 days after inoculation): 11.000 | number of microorganisms, 7 days (Staphylococcus aureus; 7 days after inoculation): 330 | number of microorganisms, 14 days (Staphylococcus aureus; 14 days after inoculation): 1 | number of microorganisms, 28 days (Staphylococcus aureus; 28 days after inoculation): 1 | number of microorganisms, 2 days (Candida albicans; 2 days after inoculation): 150.000 | number of microorganisms, 7 days (Candida albicans; 7 days after inoculation): 750 | number of microorganisms, 14 days (Candida albicans; 14 days after inoculation): 1 | number of microorganisms, 28 days (Candida albicans; 28 days after inoculation): 1 | number of microorganisms, 2 days (Escherichia coli; 2 days after inoculation): 96.000 | number of microorganisms, 7 days (Escherichia coli; 7 days after inoculation): 38.000 | number of microorganisms, 14 days (Escherichia coli; 14 days after inoculation): 290 | number of microorganisms, 28 days (Escherichia coli; 28 days after inoculation): 1
